As usually defined, the IC50 is the point on the concentration scale where inhibition reaches its midpoint.

In the experiment the target is 3CLpro of SARS-CoV-2 (Severe acute respiratory syndrome coronavirus 2, UniProt P0DTD1).
“Sodium (2S)-1-hydroxy-2-((S)-4-methyl-2-(((((1s,4S)-4-propylcyclohexyl) methoxy-d2) carbonyl) amino) pentanamido)-3-(2-oxopyrrolidin-3-yl) propane-1-sulfonate [Compound 9c]”: half-maximal inhibition (IC50) required 330 nM.

For the substance “((1s,4S)-4-Propylcyclohexyl) methyl-d2 ((2S)-4-methyl-1-oxo-1-(((2S)-1-oxo-3-(2-oxopyrrolidin-3-yl) propan-2-yl) amino) pentan-2-yl) carbamate [Compound 9b]”, the IC50 came to 410 nM.

For “Sodium (2S)-1-hydroxy-2-((S)-4-methyl-2-(((((1s,4S)-4-propylcyclohexyl)oxy)carbonyl) amino)pentanamido)-3-((S)-2-oxopyrrolidin-3-yl)propane-1-sulfonate [Compound 3c]”, the IC50 turned out to be 200 nM.

“Sodium (2S)-2-((S)-2-((((4,4-difluorocyclohexyl) methoxy-d2) carbonyl) amino)-4-methylpentanamido)-1-hydroxy-3-(2-oxopyrrolidin-3-yl) propane-1-sulfonate [Compound 11c]” gave an IC50 of 300 nM.
